From article PMC2711989 (Cancer research, 2009)
“And” between values parts separate entries of the source, which are not always exact repeats. Identical values can stand only once.

Key:
Assay type in all cases: in vivo, mice
[1] = Biodistribution in the BxPC-3 xenograft model; settings: male, athymic nude (nu/nu), mouse, BxPC-3 tumor, iv, total radioactivity
Method in brief: (§1)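 Male athymic nude mice (nu/nu) received 1.5 × 10^6 BxPC-3 cells s.c. in the left shoulder region, in 1:1 serum-free DMEM/MatriGel. Studies began at a tumor diameter of ∼0.5 cm. Radiotracers (∼15 to 30 μCi) were given in saline/PBS, n = 3 per time point. Tumor and tissue radioactivity was expressed as decay-corrected %ID/g, mean ± SD. Significance was tested by two-tailed Student's t-test.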

BxPC-3 xenograft = assay: Biodistribution in the BxPC-3 xenograft model
Method in brief: as §1

BxPC-3 tumor = assay: MicroPET imaging of the BxPC-3 xenograft model; settings: mean ± SD, n = 3 animals
[2] = tested on: DX3puroβ6 (αvβ6-positive) and DX3puro (αvβ6-negative) xenografts; assay: Biodistribution in the DX3puro/DX3puroβ6 xenograft model
Method in brief: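 Each male athymic nude mouse (nu/nu) carried both xenografts: 3 × 10^6 DX3puroβ6 (αvβ6-transduced) and 3 × 10^6 DX3puro (control) melanoma cells in serum-free DMEM, injected s.c. on opposite shoulder flanks. Studies began at a tumor diameter of ∼0.5 cm. Radiotracers (∼15 to 30 μCi) were given in saline/PBS, n = 3 per time point. Uptake was expressed as decay-corrected %ID/g, mean ± SD.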

For `CC(C)C[C@H](NC(=O)[C@H](CC(=O)O)NC(=O)CNC(=O)[C@H](CCCNC(=N)N)NC(=O)[C@H](CC(C)C)NC(=O)[C@H](CC(N)=O)NC(=O)[C@@H]1CCCN1C(=O)[C@@H](NC(=O)[C@H](C)NC(=O)[C@H](CC(N)=O)NC(=O)CCOCCOCCOCCOCCOCCOCCOCCOCCOCCOCCOCCOCCOCCOCCOCCOCCOCCOCCOCCOCCOCCOCCOCCOCCOCCOCCOCCOCCNC(=O)c1ccc(F)cc1)C(C)C)C(=O)N[C@@H](CCC(N)=O)C(=O)N[C@H](C(=O)N[C@@H](CC(C)C)C(=O)N[C@@H](C)C(=O)N[C@@H](CCC(N)=O)C(=O)N[C@@H](CCCCN)C(=O)N[C@H](C(=O)N[C@@H](C)C(=O)N[C@@H](CCCNC(=N)N)C(=O)N[C@H](C(N)=O)[C@@H](C)O)C(C)C)C(C)C` [[^18F]FBA-PEG28-A20FMDV2], the tissue uptake at 1 h [1] was 1.85 ± 0.44 %ID/g, the tissue uptake at 4 h [1] was 1.48 ± 0.04 %ID/g and the BxPC-3/blood ratio (BxPC-3 xenograft; 1 h) was 11.8 :1. For the same molecule, the BxPC-3/muscle ratio (BxPC-3 xenograft; 1 h) was 2.5 :1, the BxPC-3/pancreas ratio (BxPC-3 xenograft; 1 h) was 4.2 :1 and the BxPC-3/blood ratio (BxPC-3 xenograft; 4 h) was > 47 :1 and 47.9 :1. The BxPC-3/muscle ratio (BxPC-3 xenograft; 4 h) was 3.6 :1, the BxPC-3/pancreas ratio (BxPC-3 xenograft; 4 h) was > 23 :1 and 23.6 :1 and the “retention in BxPC-3 tumors relative to non-PEGylated [^18F]FBA-A20FMDV2” value (BxPC-3 xenograft; BxPC-3 model) was 12 fold. The “SUVmax in BxPC-3 tumor” value (BxPC-3 tumor; 15min) was 1.07 ± 0.29, the “SUVmax in BxPC-3 tumor” value (BxPC-3 tumor; 1 h p.i.) was 0.91 ± 0.25 and the “SUVmax in BxPC-3 tumor” value (BxPC-3 tumor; 4 h) was 0.63 ± 0.12. For the same molecule, the “maximal αvβ6-positive/-negative xenograft uptake ratio” value [2] was 8.0 :1.
